Measured values from several laboratories, pooled; numbers as filed in NIAID ChemDB.

Common to all: growth or infection tests; species: Mycobacterium tuberculosis

Rows are shuffled and stem from different studies. ECn is the concentration giving n% inhibition of infection, replication or growth. Inhibition is in % at the dose shown (toxicity tests: loss of growth or viability). An empty or dashed field is not shown. MIC bound comes from a single tested concentration.

SMILES	measure	read by	conditions	mutations	strain	cell line	dose	value
CC(C)(C)c1ncc(CCCN=C(N)N)[nH]c1=O	MIC				EMB-R			6.3 µg/mL
NCC[C@H](O)C(=O)N[C@@H]1C[C@H](N)[C@@H](O[C@H]2O[C@H](CN)[C@@H](O)[C@H](O)[C@H]2O)[C@H](O)[C@H]1O[C@H]1O[C@H](CO)[C@@H](O)[C@H](N)[C@H]1O	Mean MIC				H37Rv			0.42 µg/mL
NNC(=O)c1ccncc1	MIC	BACTEC			HN878			0.049 µg/mL
CC(=O)Nc1ccc(OCC(=O)NN2C(=O)CSC2c2cccc([N+](=O)[O-])c2)cc1	EC50				H37Rv			>12.5 µg/mL
O=C(O)c1cn(C2CC2F)c2c(Cl)c(N3CC4CCCNC4C3)c(F)cc2c1=O	MIC				43 (RFP-susceptible)			0.1 µg/mL
CN(C)c1ccc(-c2nc(N3CCOCC3)[nH]c(=O)c2C#N)cc1	MIC				H37Ra			>50 µg/mL
Nc1nc2ccccc2n1/N=C/c1ccccc1[N+](=O)[O-]	MIC bound	BACTEC			H37Rv			>12.5 µg/mL
CCC1CN(c2c(F)cc3c(=O)c(C(=O)O)cn(C4CC4)c3c2OC)CCN1	MIC				56 (RFP-resistant)			32 µg/mL
N[C@H]1CCN(c2nc3c(cc2F)c(=O)c(C(=O)O)cn3C2CC2)C1	EC50		inside macrophages		H37Rv	Macrophages		<1 µg/mL
COc1c(O)cc2oc3cc(O)c(CCC(C)C)c(O)c3c(=O)c2c1CCC(C)C	MIC	resazurin		MDR	M22			3.12 µg/mL
CC(=O)Nc1ccc(OCC(=O)NN2C(=O)CSC2c2ccccc2Cl)cc1	inhibition				H37Rv		12.5 µg/mL	0%
CSc1ncc(SC)c(Nc2ccc(C)c(Cl)c2)n1	MIC bound	BACTEC			H37Rv			≤12.5 µg/mL
CC[C@@H](CO)NCCN[C@@H](CC)CO	MIC	resazurin		MDR	M21			>8 µg/mL
CCN(CC)CCNc1ccc(C)c2oc3ccc(O)cc3c(=O)c12	MIC				H37Rv			12.5 µg/mL
CN(C)c1ccc(-c2nc(N3CCc4ccccc4C3)[nH]c(=O)c2C#N)cc1	MIC				H37Ra			>50 µg/mL
S=C(SSSSC(=S)N(C1CCCCC1)C1CCCCC1)N(C1CCCCC1)C1CCCCC1	MIC	BACTEC			H37Rv			≥128 µg/mL
CC(C)c1ncc(C(=O)NN)[nH]1	MIC				H37Rv			>6.25 µg/mL
O=C(COc1ccccc1)N/N=C1\CCOc2ccccc21	EC50				H37Rv			~40 µg/mL
CC(=O)c1c(OCC(N)=O)cc2oc3cc(O)c(CCC(C)C)c(O)c3c(=O)c2c1CCC(C)C	MIC	resazurin			H37Ra			1.56 µg/mL
CN(C)C/C=C(/c1ccc(-c2ccc(Br)cc2)cc1)c1ccc([N+](=O)[O-])cc1	MIC				ALI 3415			36.5 µg/mL
N#Cc1c(-c2cccnc2)nc(NCCO)[nH]c1=O	MIC				H37Ra			>50 µg/mL
CN(C)C/C=C(/c1ccc(Br)cc1)c1ccc(-c2ccc(Br)cc2)cc1	MIC				ALI 282			≤4 µg/mL
NNC(=O)c1nc(C2CCCCC2)[nH]c1C1CCCCC1	MIC				H37Rv			>6.25 µg/mL
CC1CC(C)CN(c2sc([N+](=O)[O-])cc2[N+](=O)[O-])C1	MIC	resazurin			H37Rv			6.25 µg/mL
NNC(=O)c1ccncc1	MIC	resazurin		MDR	M-4			>2 µg/mL
CO[C@H]1/C=C/O[C@@]2(C)Oc3c(C)c(O)c4c(O)c(c(/C=N/N5CCN(C)CC5)c(O)c4c3C2=O)NC(=O)/C(C)=C\C=C\[C@H](C)[C@H](O)[C@@H](C)[C@@H](O)[C@@H](C)[C@H](OC(C)=O)[C@@H]1C	MIC	resazurin / absorbance		inhA mutant isoniazid resistant	HUG.MB.3649			0.001 µg/mL
Cc1ccnc(Nc2nnc(Nc3cc(C)ccn3)c3ccccc23)c1	inhibition	BACTEC			H37Rv		12.5 µg/mL	59%
COc1ccc(/C=N/NC(=O)COc2ccc(NC(C)=O)cc2)cc1	EC50				H37Rv			>12.5 µg/mL
O=[N+]([O-])c1cn2c(n1)OC[C@H](OCc1ccc(OC(F)(F)F)cc1)C2	MIC	resazurin			ss18b			0.156 µg/mL
CCOC(=O)[C@H](C)Sc1nc(N)c2c3c(sc2n1)CC(C(C)(C)C)CC3	MIC	MTT / visual reading			H37Rv			3.1 µg/mL
CC(=O)Nc1ccc(OCC(=O)NN2C(=O)CSC2c2ccco2)cc1	inhibition				H37Rv		12.5 µg/mL	0%
C[n+]1c(-c2ccc(/C=N/NC(=O)c3cncc(C(=O)N/N=C/c4ccc(-c5cn6ccccc6[n+]5C)cc4)c3)cc2)cn2ccccc21.Cc1ccc(S(=O)(=O)[O-])cc1.Cc1ccc(S(=O)(=O)[O-])cc1	MIC bound	BACTEC			H37Rv			>12.5 µg/mL
CC(=O)c1cc([N+](=O)[O-])c(N2CCC(C)CC2)s1	MIC	resazurin			ss18b			>100 µg/mL
CCN(CC)CCN1C(=O)c2cccc3cc(N)cc(c23)C1=O	MIC bound	resazurin			H37Rv			>6.25 µg/mL
N#Cc1c(-c2cccnc2)nc(Nc2ccc(F)cc2)[nH]c1=O	MIC				H37Ra			>50 µg/mL
CO[C@H]1/C=C/O[C@@]2(C)Oc3c(C)c(O)c4c(O)c(c(/C=N/N5CCN(C)CC5)c(O)c4c3C2=O)NC(=O)/C(C)=C\C=C\[C@H](C)[C@H](O)[C@@H](C)[C@@H](O)[C@@H](C)[C@H](OC(C)=O)[C@@H]1C	MIC	resazurin			M6			>2 µg/mL
NC1CN(c2c(F)cc3c(=O)c(C(=O)O)cn(C4CC4)c3c2Cl)CC12CC2	MIC				40 (RFP-susceptible)			0.1 µg/mL
CC(=O)Nc1ccc(OCC(=O)NN2C(=O)CSC2/C=C/c2ccccc2)cc1	EC50				H37Rv			>12.5 µg/mL
O=C1c2ccccc2C(=O)N1CC/C=C/c1ccc([N+](=O)[O-])cc1Cl	MIC bound	BACTEC			H37Rv			>12.5 µg/mL
NNC(=O)c1ccncc1	MIC				Isolate 2225			>4 µg/mL
CC(C)(C)C1CCc2c(sc3nc(SCc4cccnc4)nc(N)c23)C1	MIC	MTT / visual reading			H37Rv			>200 µg/mL
NC(=O)c1cnccn1	MIC				Isolate H2374 (RIF-resistant)			>900 µg/mL
Cc1ccc(-c2nc(N3CCN(c4ccccc4)CC3)[nH]c(=O)c2C#N)cc1	MIC				H37Ra			>50 µg/mL
CO[C@H]1/C=C/O[C@@]2(C)Oc3c(C)c(O)c4c(O)c(c(/C=N/N5CCN(C)CC5)c(O)c4c3C2=O)NC(=O)/C(C)=C\C=C\[C@H](C)[C@H](O)[C@@H](C)[C@@H](O)[C@@H](C)[C@H](OC(C)=O)[C@@H]1C	MIC				H37Rv (kanamycin-resistant)			2.5 µg/mL
C=C[C@]1(C)C[C@@H](OC(=O)CO)[C@]2(C)C(C)CC[C@]3(CCC(=O)C32)[C@@H](C)[C@@H]1O	MIC bound	BACTEC			H37Rv			>12.5 µg/mL
CN(C)CC=C(c1ccccc1)c1ccc(-c2ccc(Br)cc2)cc1	MIC				H37Rv			10 µg/mL
C=C1C(=O)O[C@@H]2[C@@H]1[C@@H](OC(=O)/C(C)=C/COC(C)=O)C[C@@]1(CO1)[C@@H]1[C@H]2C(C)=C[C@@H]1O	MIC	BACTEC			H37Rv			≥12.5 µg/mL
CN[C@@H]1[C@H](O[C@H]2[C@H](O[C@H]3[C@H](O)[C@@H](O)[C@H](N=C(N)N)[C@@H](O)[C@@H]3N=C(N)N)O[C@@H](C)[C@]2(O)C=O)O[C@@H](CO)[C@H](O)[C@H]1O	MIC	resazurin		MDR	M21			>8 µg/mL
CNC(=O)c1ccc[n+](CC(=O)NCc2ccccc2)c1.[Cl-]	MIC	BACTEC			H37Rv			≥12.5 µg/mL
CCOC(=O)c1nc(C(C)(C)C)[nH]c1C(C)(C)C	inhibition				H37Rv		6.25 µg/mL	0%
N#Cc1c(-c2ccc(F)cc2)nc(NC2CCCCCC2)[nH]c1=O	MIC				H37Ra			>50 µg/mL
COc1cc2c(c3c1c(=S)c1ccccc1n3C)C=CC(C)(C)O2	MIC bound	BACTEC			H37Rv			>12.5 µg/mL
CC(=O)O[C@H]1C[C@@]2(C)[C@@H](C[C@@H](O)[C@H]3[C@@]4(C)CC[C@@H](O)[C@@H](C)[C@@H]4CC[C@@]32C)/C1=C(\CCC=C(C)C)C(=O)O	Mean MIC				H37Rv			12 µg/mL
c1cc2c3c(cccc3c1)NC1(CCCC1)N2	MIC bound	BACTEC			H37Rv			>12.8 µg/mL
COc1cc2oc3cc(O)c(CCC(C)C)c(O)c3c(=O)c2c(CCC(C)C)c1OC	MIC	resazurin			M6			1.56 µg/mL
O=Nc1c2c(N3CCN(c4ccccn4)CC3)[nH]c3ccc(Br)cc3c-2c2ccccc12	MIC	BACTEC / radiometric			H37Rv			12.8 µM
C[C@H]1COc2c(N3CCN(C)CC3)c(F)cc3c(=O)c(C(=O)O)cn1c23	MIC				H37RV (DRUG-SUS)			0.5 µg/mL
Cn1cccc1C1NC(=O)C(c2cccn2C)NC1=O	inhibition	BACTEC			H37Rv		12.5 µg/mL	18%
CN(C)C/C=C(\c1ccc(O)cc1)c1ccc(-c2ccc(Br)cc2)cc1	MIC				H37Ra			39 µg/mL
CC(C)(C)c1ncc(C(=O)O)[nH]1	MIC				H37Rv			>6.25 µg/mL
C=CCOc1cc2oc3cc(O)c(CCC(C)C)c(O)c3c(=O)c2c(CCC(C)C)c1OC	MIC	resazurin			M8			1.56 µg/mL
NC[C@@H]1O[C@H](O[C@H]2[C@@H](O)[C@H](O[C@@H]3[C@@H](O)[C@H](N)C[C@H](N)[C@H]3O[C@H]3O[C@H](CO)[C@@H](O)[C@H](O)[C@H]3N)O[C@@H]2CO)[C@H](N)[C@@H](O)[C@@H]1O	Mean MIC				H37Ra			4.5 µg/mL
NC(=S)N/N=C1/C(=O)N(c2ccccc2)C(=O)C1C(=O)Nc1ccccc1	MIC bound	BACTEC			H37Rv			>12.8 µg/mL
CC1(O)c2ccccc2-c2c1c(-n1ccnc1)nc1ccc(Br)cc21	MIC	BACTEC / radiometric			H37Rv			1.98 µM
CC(C)(C)C1CCc2c(sc3nc(SCc4noc5ccccc45)nc(N)c23)C1	MIC	MTT / visual reading			H37Rv			>200 µg/mL
CN(C)C/C=C(/c1ccccc1)c1ccc(-c2ccc(Br)cc2)cc1	MIC				ALI 536			≤5 µg/mL
COc1ccc(-c2nc(NC3CCCCCC3)[nH]c(=O)c2C#N)cc1	MIC				H37Ra			>50 µg/mL
CC(=O)c1c(OCCO)cc2oc3cc(O)c(CCC(C)C)c(O)c3c(=O)c2c1CCC(C)C	MIC	resazurin			H37Ra			1.56 µg/mL
CN1C(=O)N(c2cc(Cl)cc(Cl)c2)C(=N)C1=S	MIC bound	BACTEC			H37Rv			>12.5 µg/mL
N#Cc1c(-c2ccc(F)cc2)nc(NCCCN2CCOCC2)[nH]c1=O	MIC				H37Ra			>50 µg/mL
CC[C@H]1OC(=O)[C@H](C)[C@@H](O[C@H]2C[C@@](C)(OC)[C@@H](O)[C@H](C)O2)[C@H](C)[C@@H](O[C@@H]2O[C@H](C)C[C@H](N(C)C)[C@H]2O)[C@](C)(OC)C[C@@H](C)C(=O)[C@H](C)[C@@H](O)[C@]1(C)O	Mean MIC				H37Rv			10 µg/mL
NNC(=O)CCc1cnc(C2CCCCC2)[nH]1	MIC				H37Rv			>6.25 µg/mL
COCCNC(=O)c1ccc2c(c1)n(O)c(=O)c(C#N)[n+]2[O-]	inhibition	BACTEC			H37Rv		12.5 µg/mL	10%
CN(C)C/C=C(\c1ccc(O)cc1)c1ccc(-c2ccccc2)cc1	MIC				ALI 282			49 µg/mL
CSC(=S)n1nc(-c2cccs2)c(N=Nc2ccc(Cl)cc2)c1C(F)(F)F	inhibition	BACTEC			H37Rv		128 µg/mL	100%
COc1nc2ccc(Br)cc2c2c1C(C)(OC(=O)N(C)C)c1ccccc1-2	MIC	BACTEC / radiometric			H37Rv			14.63 µM
Cc1ccc2nc(Nc3ccc(Cl)cc3)cc(C(O)C3CCCCN3)c2c1	MIC	BACTEC			H37Rv			8 µg/mL
CCOCCSc1nc(N)c2c3c(sc2n1)CC(C(C)(C)C)CC3	MIC	MTT / visual reading			H37Rv			>100 µg/mL

A second listing of 9 rows from above:

CC1(O)c2ccccc2-c2c1c(-n1ccnc1)nc1ccc(Br)cc21 ; measure: MIC ; read by: BACTEC / radiometric ; strain: H37Rv ; value: 1.98 µM
CC1CC(C)CN(c2sc([N+](=O)[O-])cc2[N+](=O)[O-])C1 ; measure: MIC ; read by: resazurin ; strain: H37Rv ; value: 6.25 µg/mL
COc1nc2ccc(Br)cc2c2c1C(C)(OC(=O)N(C)C)c1ccccc1-2 ; measure: MIC ; read by: BACTEC / radiometric ; strain: H37Rv ; value: 14.63 µM
NNC(=O)CCc1cnc(C2CCCCC2)[nH]1 ; measure: MIC ; strain: H37Rv ; value: >6.25 µg/mL
C=C1C(=O)O[C@@H]2[C@@H]1[C@@H](OC(=O)/C(C)=C/COC(C)=O)C[C@@]1(CO1)[C@@H]1[C@H]2C(C)=C[C@@H]1O ; measure: MIC ; read by: BACTEC ; strain: H37Rv ; value: ≥12.5 µg/mL
COc1cc2oc3cc(O)c(CCC(C)C)c(O)c3c(=O)c2c(CCC(C)C)c1OC ; measure: MIC ; read by: resazurin ; strain: M6 ; value: 1.56 µg/mL
CN(C)C/C=C(\c1ccc(O)cc1)c1ccc(-c2ccc(Br)cc2)cc1 ; measure: MIC ; strain: H37Ra ; value: 39 µg/mL
CSc1ncc(SC)c(Nc2ccc(C)c(Cl)c2)n1 ; measure: MIC bound ; read by: BACTEC ; strain: H37Rv ; value: ≤12.5 µg/mL
O=C1c2ccccc2C(=O)N1CC/C=C/c1ccc([N+](=O)[O-])cc1Cl ; measure: MIC bound ; read by: BACTEC ; strain: H37Rv ; value: >12.5 µg/mL